Results of unrelated studies side by side (data: NIAID ChemDB).

Shared fields: tests on isolated targets; agent: HIV-1; target: Protease; method: HPLC; measure: IC50

ICn is the concentration giving n% inhibition. An empty or dashed field is not shown. Lines come from different laboratories, so protocols vary.

| smiles | conditions | strain or isolate | value |
|---|---|---|---|
| CC(C)[C@@H]1NC(=O)CCOCCCOc2ccc(cc2)C[C@@H]([C@H](O)CN2C[C@H]3CCCC[C@H]3C[C@H]2C(=O)NC(C)(C)C)NC1=O | - | IIIB | 0.001 µM |
| CC(C)(C)NC(=O)[C@H]1N(C(=O)[C@@H](O)[C@H](Cc2ccccc2)NC(=O)c2ccccc2C(=O)NCc2ccccn2)CSC1(C)C | - | - | >5 µM |
| CC(C)C[C@@H](C=O)NC(=O)[C@@H](N)CC(C)C | - | - | <1000 µM |
| COc1cccc2cc(C(=O)N[C@@H](Cc3ccccc3)[C@H](O)C(=O)N3CSC(C)(C)[C@H]3C(=O)NCc3ccccc3C)oc12 | - | - | <5 µM |
| CSCC[C@H](NC(=O)CCCCCCCCCCCCCCC(=O)N[C@H](C(=O)N[C@@H](CC1CCCCC1)C(=O)N[C@@H](Cc1ccccc1)C(N)=O)C(C)O)C(=O)N[C@@H](Cc1ccccc1)C(=O)O | - | - | 1.34 µM |
| Cc1ccccc1CNC(=O)[C@H]1N(C(=O)[C@@H](O)[C@H](Cc2ccccc2)NC(=O)c2ccccc2NC(=O)OCc2ccccc2)CSC1(C)C | - | - | <5 µM |
| N[C@@H](Cc1ccccc1)C(=O)NC(Sc1ccccc1)C(=O)O | - | - | >50 µM |
| CC(C)C[C@H](N)C(=O)N[C@H](C=O)CCC(=O)O | - | - | <1000 µM |
| CC1=CC[C@H]([C@@H](C)C2CC[C@@]3(C)C4=C(C=C5C=CC(=O)OC(C)(C)C5CC4)CC[C@]23C)OC1=O | - | - | 20 µg/mL |
| CC(C)C[C@H](NC(=O)[C@@H](NC(=O)CCCCCCCCCCCCCCC(=O)N[C@@H](Cc1ccc(N)cc1)C(=O)N[C@@H](Cc1ccccc1)C(=O)O)C(C)O)C(=O)N[C@@H](Cc1ccc(-c2ccccc2)cc1)C(N)=O | - | - | 1.02 µM |
| CSCC[C@H](NC(=O)c1cccc(O)c1C)C(=O)N(Cc1ccccc1)N(CCO)C(=O)[C@@H]1CCCN1C(=O)OC(C)(C)C | - | - | 44 µM |
| CC(C)C[C@H](NC(=O)[C@@H](N)CC(C)C)C(=O)N[C@@H](CCC(=O)O)C(=O)O | - | - | <1000 µM |
| CC(C)C[C@H](NC(=O)[C@@H](NC(=O)CCCCCCCCCCCCCCC(=O)N[C@@H](CS(C)(=O)=O)C(=O)N[C@@H](Cc1ccccc1)C(=O)O)C(C)C)C(=O)N[C@@H](Cc1ccccc1)C(N)=O | - | - | 0.48 µM |
| CC(C)CN(C[C@@H](O)C[C@@H](Cc1ccccc1)C(=O)N[C@H]1c2ccccc2C[C@H]1O)C(=O)OCc1ccccc1 | - | - | 0.0085 µM |
| CC(C)C[C@H](NC(=O)CCCCCCCCCCCCCCC(=O)N[C@@H](CC(N)=O)C(=O)N[C@@H](Cc1ccccc1)C(=O)O)C(=O)N[C@@H](CC(C)C)C(=O)N[C@@H](Cc1ccccc1)C(N)=O | - | - | 0.87 µM |
| COc1cc(CN2CCN(C[C@@H](O)[C@H](Cc3ccccc3)NC(=O)O[C@@H]3CCS(=O)(=O)[C@@H]3C(C)C)[C@H](C(=O)NC(C)(C)C)C2)cc2c1OCO2 | - | - | 0.0012 µM |
| CC(C)C[C@H](NC(=O)[C@@H](NC(=O)CCCCCCCCCCCCCCC(=O)N[C@@H](CC(N)=O)C(=O)N[C@@H](Cc1ccccc1)C(=O)O)C(C)O)C(=O)N[C@@H](Cc1cc(I)c(Oc2cc(I)c(O)c(I)c2)c(I)c1)C(N)=O | - | - | 0.4 µM |
| COc1cc2c(c(O)c1OC)-c1c(cc3c(c1OC)OCO3)[C@H](OC(C)=O)[C@H](C)[C@H](C)C2 | - | - | >100 µg/mL |
| CC(O)[C@H](NC(=O)CCCCCCCCCCCCCCC(=O)N[C@@H](CC(N)=O)C(=O)N[C@@H](CC1CCCCC1)C(=O)O)C(=O)N[C@H](C(=O)N[C@@H](Cc1ccccc1)C(N)=O)C1CCCCC1 | - | - | 0.58 µM |
| CC(C)(C)NC(=O)[C@H]1N(C(=O)[C@@H](O)[C@H](Cc2ccccc2)NC(=O)c2ccccc2NC(=O)OCc2ccccc2)CSC1(C)C | - | - | <5 µM |
| Cc1c(O)cccc1C(=O)N[C@H](C(=O)N(c1ccccc1)N(CO)C(=O)[C@@H]1CCCN1C(=O)OC(C)(C)C)[C@@H](C)O | - | - | >1000 µM |
| CC[C@H](C)[C@@H](NC(=O)[C@@H](C[C@H](O)[C@H](CC(C)C)NC(=O)[C@H](Cc1cnc[nH]1)NC(=O)[C@H](Cc1ccccc1)NC(=O)[C@@H]1CCCN1C(=O)[C@@H](N)Cc1cnc[nH]1)C(C)C)C(=O)N[C@@H](Cc1cnc[nH]1)C(=O)O | pH 7.0 | - | 0.025 µM |
| C.NC(=O)C[C@H](NC(=O)CCCCCCCCCCCCCCC(=O)N[C@@H](CO)C(=O)N[C@@H](CC1CCCCC1)C(=O)N[C@@H](Cc1ccccc1)C(N)=O)C(=O)N[C@@H](Cc1cccc2ccccc12)C(=O)O | - | - | 0.53 µM |
| CSCC[C@H](NC(=O)c1cccc(O)c1C)C(=O)N(c1ccccc1)N(CO)C(=O)[C@@H]1CCCN1C(=O)OC(C)(C)C | - | - | 430 µM |
| CC(C)C[C@H](NC(=O)[C@@H](NC(=O)CCCCCCCCCCCCCCC(=O)N[C@@H](CC(N)=O)C(=O)N[C@@H](Cc1cccc2ccccc12)C(=O)O)C(C)C)C(=O)N[C@@H](Cc1ccccc1)C(N)=O | - | - | 0.38 µM |
| Cc1ccccc1CNC(=O)[C@H]1N(C(=O)[C@@H](O)[C@H](Cc2ccccc2)NC(=O)c2ccccc2C(=O)NCc2cccnc2)CSC1(C)C | - | - | <5 µM |

2 of the rows above, restated:

smiles	conditions	strain or isolate	value
CC(C)CN(C[C@@H](O)C[C@@H](Cc1ccccc1)C(=O)N[C@H]1c2ccccc2C[C@H]1O)C(=O)OCc1ccccc1	-	-	0.0085 µM
CC(C)(C)NC(=O)[C@H]1N(C(=O)[C@@H](O)[C@H](Cc2ccccc2)NC(=O)c2ccccc2C(=O)NCc2ccccn2)CSC1(C)C	-	-	>5 µM